Laboratory results reported in paper PMC7616463 (Journal of medicinal chemistry, 2024).

test: general procedure: solution-phase peptide synthesis; T3P, NMM; details: coupling step

First: (S)-2-((S)-2-acetamido-2-cyclopentylacetamido)-3,3-dimethyl-N-(2-oxo-2-(((R)-1-((3aS,4S,6S, 7aR)-3a,5,5-trimethylhexahydro-4,6-methanobenzo[d][1,3,2]dioxaborol-2-yl)ethyl)amino)ethyl) butanamide
Second: (S)-2-((S)-2-acetamido-2-cyclopentylacetamido)-3-cyclohexyl-N-(2-oxo-2-(((R)-1-((3aS,4S,6S, 7aR)-3a,5,5-trimethylhexahydro-4,6-methanobenzo[d][1,3,2]dioxaborol-2-yl)ethyl)amino)ethyl) propanamide
The step yield of the first is higher: 47% for the first, 30% for the second.

Compared with “(S)-2-((S)-2-acetamido-2-cyclopentylacetamido)-3-cyclopentyl-N-(2-oxo-2-(((R)-1-((3aS,4S,6S,7aR)-3a,5,5-trimethylhexahydro-4,6-methanobenzo[d][1,3,2]dioxaborol-2-yl)ethyl)amino)ethyl)propanamide”, “(S)-2-((S)-2-acetamido-2-cyclopentylacetamido)-4,4-dimethyl-N-(2-oxo-2-(((R)-1-((3aS,4S,6S, 7aR)-3a,5,5-trimethylhexahydro-4,6-methanobenzo[d][1,3,2]dioxaborol-2-yl)ethyl)amino) ethyl)pentanamide” is higher in step yield: 24% for the first, 52% for the second.

Going from “(S)-2-((S)-2-acetamido-2-cyclopentylacetamido)-4-methyl-N-(2-oxo-2-(((R)-1-((3aS,4S,6S, 7aR)-3a,5,5-trimethylhexahydro-4,6-methanobenzo[d][1,3,2]dioxaborol-2-yl)ethyl)amino) ethyl)pentanamide” to “(S)-2-((S)-2-acetamido-2-cyclopentylacetamido)-N-(2-oxo-2-(((R)-1-((3aS,4S,6S, 7aR)-3a,5,5-trimethylhexahydro-4,6-methanobenzo[d][1,3,2]dioxaborol-2-yl)ethyl) amino)ethyl)-3-phenylpropanamide”, the step yield falls from 41% to 38%.

In the case of “(S)-2-acetamido-2-cyclopentyl-N-((S)-2-oxo-2-((2-oxo-2-(((R)-1-((3aS,4S,6S,7aR)-3a,5,5-trimethylhexahydro-4,6-methanobenzo[d][1,3,2]dioxaborol-2-yl)ethyl)amino)ethyl)amino)-1-phenylethyl)acetamide”, the step yield is reported as 35%.

same assay, conditions: late stage modification step

Going from “(2S,3S)-2-((S)-2-cyclopentyl-2-((pyridin-2-ylmethyl)amino)acetamido)-3-methyl-N-(2-oxo-2-(((R)-1-((3aS,4S,6S,7aR)-3a,5,5-trimethylhexahydro-4,6-methano benzo[d]-[1,3,2]dioxaborol-2-yl)ethyl)amino)ethyl)pentanamide” to “(2S,3S)-2-((S)-2-cyclopentyl-2-(thiazole-2-sulfonamido)acetamido)-3-methyl-N-(2-oxo-2-(((R)-1-((3aS,4S,6S,7aR)-3a,5,5-trimethylhexahydro-4,6-methanobenzo[d]-[1,3,2]dioxaborol-2-yl)ethyl)amino)ethyl)pentanamide”, the step yield rises from 59% to 81%.

Compared with “(2S,3S)-2-((S)-2-cyclopentyl-2-pivalamidoacetamido)-3-methyl-N-(2-oxo-2-(((R)-1-((3aS,4S,6S,7aR)-3a,5,5-trimethylhexahydro-4,6-methanobenzo[d][1,3,2]dioxaborol-2-yl)ethyl)amino)ethyl)pentanamide”, “((2R,8S,11S)-8-((S)-sec-butyl)-11-cyclopentyl-4,7,10,13-tetraoxo-3,6,9,12-tetraaza-tetradecan-2-yl)boronic acid” is higher in step yield: 67% for the first, 81% for the second.

First: ((2R,8S,11S)-8-((S)-sec-butyl)-11-cyclopentyl-14,14-dimethyl-4,7,10,13-tetraoxo-3,6,9,12-tetraazapentadecan-2-yl)boronic acid
Second: ((2R,8S,11S)-8-((S)-sec-butyl)-11-cyclopentyl-14-methyl-4,7,10,13-tetraoxo-3,6,9,12-tetraazapentadecan-2-yl)boronic acid
The step yield of the first is lower: 53% for the first, 66% for the second.

Going from “((2R,8S,11S)-8-(cyclohexylmethyl)-11-cyclopentyl-4,7,10,13-tetraoxo-3,6,9,12-tetra-azatetradecan-2-yl)boronic acid” to “((2R,8S,11S)-8-(tert-butyl)-11-cyclopentyl-4,7,10,13-tetraoxo-3,6,9,12-tetraazatetra decan-2-yl)boronic acid”, the step yield rises from 54% to 74%.

“((2R,8S,11S)-8-benzyl-11-cyclopentyl-4,7,10,13-tetraoxo-3,6,9,12-tetraazatetradecan-2-yl)boronic acid” and “((2R,8S,11S)-11-cyclopentyl-4,7,10,13-tetraoxo-8-phenyl-3,6,9,12-tetraazatetradecan -2-yl)boronic acid” are the same in step yield: 75% for the first, 75% for the second.

First: ((2R,8S,11S)-11-cyclopentyl-8-(cyclopentylmethyl)-4,7,10,13-tetraoxo-3,6,9,12-tetra-azatetradecan-2-yl)boronic acid
Second: ((2R,8S,11S)-11-cyclopentyl-8-isobutyl-4,7,10,13-tetraoxo-3,6,9,12-tetraazatetra-decan-2-yl)boronic acid
The step yield of the first is lower: 59% for the first, 79% for the second.

Going from “((2R,8S,11S)-11-cyclopentyl-8-neopentyl-4,7,10,13-tetraoxo-3,6,9,12-tetraazatetra-decan-2-yl)boronic acid” to “((3S,6S,12R)-6-((S)-sec-butyl)-1-cyclobutyl-3-cyclopentyl-1,4,7,10-tetraoxo-2,5,8,11-tetraazatridecan-12-yl)boronic acid”, the step yield falls from 82% to 80%.

Compared with “((3S,6S,12R)-6-((S)-sec-butyl)-3-cyclopentyl-1,4,7,10-tetraoxo-1-(6-phenylpyridin-2-yl)-2,5,8,11-tetraazatridecan-12-yl)boronic acid”, “((3S,6S,12R)-6-((S)-sec-butyl)-3-cyclopentyl-1,4,7,10-tetraoxo-1-(quinolin-2-yl)-2,5,8,11-tetraazatridecan-12-yl)boronic acid” is higher in step yield: 70% for the first, 74% for the second.

Compared with “((3S,6S,12R)-6-((S)-sec-butyl)-3-cyclopentyl-4,7,10-trioxo-1-(pyridin-2-yl)-2,5,8,11-tetraazatridecan-12-yl)boronic acid (3j)”, “((3S,6S,12R)-6-((S)-sec-butyl)-3-cyclopentyl-4,7,10-trioxo-1-phenyl-2,5,8,11-tetra-azatridecan-12-yl)boronic acid” is higher in step yield: 62% for the first, 65% for the second.

Compared with “((R)-1-(2-((2S,3S)-2-((S)-2-cyclopentyl-2-(thiazole-2-sulfonamido)acetamido)-3-methylpentanamido)acetamido)ethyl)boronic acid”, “N-((S)-1-cyclopentyl-2-(((2S,3S)-1-((2-(((R)-2-hydroxy-6-oxo-1,2-oxaborinan-3-yl)amino)-2-oxoethyl)amino)-3-methyl-1-oxopentan-2-yl)amino)-2-oxoethyl) quinoline-2-carboxamide (4a)” is higher in step yield: 75% for the first, 82% for the second.

For “N-((S)-1-cyclopentyl-2-(((2S,3S)-1-((2-(((R)-2-hydroxy-6-oxo-1,2-oxaborinan-3-yl)amino)-2-oxoethyl)amino)-3-methyl-1-oxopentan-2-yl)amino)-2-oxoethyl)-3,5-dimethylbenzamide (4c)”, the step yield was 75%.

same assay, conditions: late stage modification step; run 1

“((3S,6S,12R)-6-((S)-sec-butyl)-3-cyclopentyl-1-(3,5-dimethylphenyl)-1,4,7,10-tetra-oxo-2,5,8,11-tetraazatridecan-12-yl)boronic acid” gave a step yield of 71%.

same assay, conditions: late stage modification step; run 2

In the case of “((3S,6S,12R)-6-((S)-sec-butyl)-3-cyclopentyl-1-(3,5-dimethylphenyl)-1,4,7,10-tetra-oxo-2,5,8,11-tetraazatridecan-12-yl)boronic acid”, the step yield is reported as 67%.
